We go through 1 compound from PMC7077018, “Gas chromatography-mass spectrometry analysis, phytochemical screening and antiprotozoal effects of the methanolic Viola tricolor and acetonic Laurus nobilis extracts” (BMC Complementary Medicine and Therapies, 2020).

Common to all, as to assay: Babesia fluorescent (SYBR Green I) in vitro growth inhibition assay
Type in all cases: cell-based

In data set [1] the test system is B. divergens. The text has this:
(§1) For the in vitro experiments, a German strain B. divergens, Argentine strain B. bigemina, Texas strain B. bovis, were cultivated in cattle RBCs, while USDA strains of equine piroplasm parasites (T. equi and B. caballi) were maintained in horse RBCs. […] For conducting the in vivo study, female BALB/c mice, aged six-week, obtained from CLEA Japan were infected with B. microti Munich strain [1]. […] GIT medium replenished with 40% horse serum was used as a growth medium for B. caballi parasite culture. To ensure free-bacterial contamination, all medium was supplemented with amphotericin B (0.15 μg/mL) (Sigma-Aldrich, USA), streptomycin (60 U/mL) and penicillin G (60 U/mL). The Babesia fluorescent assay was carried out on the in vitro culture as previously reported elsewhere. […] On day four of culture, an aliquot (100 μL) of lysis buffer was added to 0.2 μL/mL SG1 per well; subsequently, it was covered with aluminum foil to prevent exposure to light. After a 6-h incubation at 37 °C, fluorescence readings were acquired on a spectrofluorimeter (Fluoroskan Ascent, Thermo Fisher Scientific, USA) with a 485 nm excitation wavelength and a 518 nm emission wavelength. The IC50 values of the two extracts, DMA and ATV were established from the in vitro growth inhibition by nonlinear regression curve fit on a GraphPad Prism (GraphPad Software Inc., USA). While for in vivo, the significant variations (p < 0.05) among group mean values on parasitemia and one-way ANOVA Tukey's test in GraphPad Prism version 5.0 was used to analyze hematology profiles in mice infected with B. microti.

In data set [2] the test system is B. caballi.
From the text: as §1

Data set [3] relates to B. bigemina.
From the text: as §1

Data set [4] relates to B. bovis.
From the text: as §1

Take `CC(=O)NCC(=O)O.CC(=O)NCC(=O)O.N=C(N)c1ccc(N=NNc2ccc(C(=N)N)cc2)cc1` [DMA, diminazene aceturate]: the “Selective indices HFF” value in data set [1] (EC50 HFF / IC50 B. divergens) is on record as “˃ 285.7”; in data set [2] (EC50 HFF / IC50 B. caballi) it was “˃ 33333.3”; in data set [3] (EC50 HFF / IC50 B. bigemina), “˃ 909”; in data set [4] (EC50 HFF / IC50 B. bovis), “˃ 400”. Moreover, the “Selective indices MDBK” value in data set [1] (EC50 MDBK / IC50 B. divergens) is “˃ 285.7”; in data set [2] (EC50 MDBK / IC50 B. caballi) it was “˃ 33333.3”; in data set [3] (EC50 MDBK / IC50 B. bigemina), “˃ 909”; in data set [4] (EC50 MDBK / IC50 B. bovis), “˃ 400”. The “Selective indices NIH/3 T3” value is recorded as “˃ 285.7” in data set [1] (EC50 NIH/3 T3 / IC50 B. divergens), “˃ 33333.3” in data set [2] (EC50 NIH/3 T3 / IC50 B. caballi), “˃ 909” in data set [3] (EC50 NIH/3 T3 / IC50 B. bigemina) and “˃ 400” in data set [4] (EC50 NIH/3 T3 / IC50 B. bovis).
